Results of unrelated studies side by side (data: NIAID ChemDB).

All rows: growth or infection tests; agent: Candida albicans

MIC50, MIC90 and the like: level of inhibition, or share of isolates inhibited. Neighbouring rows are from separate reports. Two numbers with a dash give a range or band.

CCCCCCCC(Cn1ccnc1)c1ccc(Br)cc1 ; endpoint: MIC ; value: 10 µg/mL
COc1ccc(CN2C[C@H](OC[C@@]34C[C@@H]5[C@H](C)CC[C@H]5[C@@]5(C=O)C[C@@H]3CC(C(C)C)[C@@]45C(=O)O)O[C@H](C)C2)cc1 ; endpoint: MIC ; strain: CL-236 ; value: ≤0.001 µg/mL
Nc1[nH]c(=O)ncc1F ; endpoint: MIC50 ; strain: 166 isolates ; value: 0.25 µg/mL
Cc1ccc(C(C)C)cc1O ; endpoint: MLC ; strain: ATCC 10231 ; value: 0.16–0.32 µg/mL
Cc1nnsc1C(=O)NNC(=S)Nc1ccccc1Br ; endpoint: MIC ; strain: ATCC 10231 ; method: agar ; value: 400 µg/mL
Cc1ccc(-c2nnc(SCC(O)(Cn3cncn3)c3ccc(Cl)cc3Cl)n2N)cc1 ; endpoint: MIC ; strain: IRFC 192 ; method: broth dilution ; value: >64 µg/mL
Cc1nnsc1C(=O)NNC(=S)Nc1ccc(Cl)cc1Cl ; endpoint: MIC ; strain: ATCC 10231 ; method: agar ; value: 200 µg/mL
COC(=O)/C=C/c1ccccc1 ; endpoint: MIC ; method: broth dilution / resazurin ; value: 1000 µg/mL
CCCCCOc1ccc(-c2ccc(-c3ccc(C(=O)N[C@H]4CCCNC(=O)C5C[C@H](NC(=O)C[N+](C)(C)C)CN5C(=O)C(C(C)O)NC(=O)C(CCc5ccc(O)cc5)NC(=O)C5C[C@@H](O)CN5C(=O)C(C(C)O)NC4=O)cc3)cc2)cc1 ; endpoint: MIC ; strain: ATCC 62376 ; value: 1.56 µg/mL
COc1ccccc1C(=O)OC1CC(C)CCC1C(C)C ; endpoint: MIC ; value: 10.72 µM
CC(=O)OCC1C=C(c2cccc(Cl)c2)C(=O)O1 ; endpoint: MIC90 ; strain: 9 isolates fluconazole-resistant ; value: 2 µg/mL
Nn1c(SCC(O)(Cn2cncn2)c2ccc(Cl)cc2Cl)nnc1-c1cccc(Br)c1 ; endpoint: MIC ; strain: IRFC 36 ; method: broth dilution ; value: >64 µg/mL
Cc1ccccc1NC(=S)NNC(=O)c1cc2ccccc2cn1 ; endpoint: MIC ; strain: ATCC 10231 ; method: agar ; value: 50 µg/mL
CCCCCCCCCCCCCCCC(=O)N[C@H]1C[C@@H](O)[C@@H](O)NC(=O)[C@@H]2[C@@H](O)[C@@H](C)CN2C(=O)[C@H]([C@@H](C)O)NC(=O)[C@H]([C@H](O)[C@@H](O)c2ccc(O)cc2)NC(=O)[C@@H]2C[C@@H](O)CN2C(=O)[C@H]([C@@H](C)O)NC1=O ; endpoint: MIC50 ; strain: FP633 ; value: 0.06 µg/mL
CC[C@@H]([C@H](C)O)n1ncn(-c2ccc(N3CCN(c4ccc(OC[C@@H]5CO[C@@](Cn6cncn6)(c6ccc(F)cc6F)C5)cc4)CC3)cc2)c1=O ; endpoint: MIC50 ; strain: 166 isolates ; value: 0.06 µg/mL
COc1cc(O)c2c(c1)C(=O)c1c(cc3c(c1O)-c1c(cc(C)c(C(=O)NC(CO)C(=O)O)c1O)[C@H](OC1OC(C)C(O)C(OC4OCC(O)C(O)C4O)C1O)C3O)C2=O ; endpoint: MIC50 ; strain: 34 isolates ; value: 4 µg/mL
CCCCC(Cn1ccnc1)c1ccc(Cl)cc1 ; endpoint: MIC ; value: 100 µg/mL
Nn1c(SCC(O)(Cn2cncn2)c2ccc(F)cc2F)nnc1-c1ccncc1 ; endpoint: MIC ; strain: IRFC 36 ; method: broth dilution ; value: >64 µg/mL
OC(Cn1cncn1)(Cn1cncn1)c1ccc(F)cc1F ; setting: 24 h ; endpoint: MIC50 ; strain: Isolate HR-Micro ; value: 0.19 µg/mL
Nn1c(SCC(O)(Cn2cncn2)c2ccc(F)cc2F)nnc1-c1ccc(Cl)cc1 ; endpoint: MIC ; strain: ATCC 18804 ; method: broth dilution ; value: >64 µg/mL
CCCC(Cn1ccnc1)c1ccc(F)cc1 ; endpoint: MIC ; value: 100 µg/mL
Nn1c(SCC(O)(Cn2cncn2)c2ccc(F)cc2F)nnc1-c1ccc(F)cc1 ; endpoint: MIC ; strain: PTCC 6027 ; method: broth dilution ; value: >64 µg/mL
CCCCC(Cn1ccnc1)c1ccc(F)cc1 ; endpoint: MIC ; value: 100 µg/mL
CCCCCCCCCCCCCCCC(=O)NC1CC(O)C(O)NC(=O)C2C(O)C(C)CN2C(=O)C(C(O)CC(N)=O)NC(=O)C(C(O)C(O)c2ccc(O)c(OS(=O)(=O)O)c2)NC(=O)C2CC(O)CN2C(=O)C(C(C)O)NC1=O ; endpoint: MIC50 ; strain: FP582 ; value: 0.025 µg/mL
C[C@@H](SC1COC(/C=C/C=C/c2ccc(C#N)cc2F)OC1)[C@](O)(Cn1cncn1)c1ccc(F)cc1F ; endpoint: MIC ; strain: CAL-0045 ; value: >16 µg/mL
O=c1c(OC2CCCC2)c(N2CCN(S(=O)(=O)NCc3ccccc3)CC2)cnn1-c1cccc(Cl)c1 ; endpoint: MIC ; strain: C375 ; method: broth dilution ; value: 32 µg/mL
Cc1ccc(-c2nnc(SCC(O)(Cn3cncn3)c3ccc(F)cc3F)n2N)cc1 ; endpoint: MIC ; strain: IRFC 37 ; method: broth dilution ; value: >64 µg/mL
CCCCCOc1ccc(-c2ccc(-c3ccc(C(=O)N[C@H]4CCCNC(=O)[C@@H]5C[C@H](N)CN5C(=O)[C@H](CCCN=C(N)N)NC(=O)C(CCc5ccc(O)cc5)NC(=O)[C@@H]5C[C@@H](O)CN5C(=O)[C@H]([C@@H](C)O)NC4=O)cc3)cc2)cc1 ; endpoint: MIC ; strain: ATCC 62376 ; value: 0.39 µg/mL
O=c1c(N2CCOCC2)c(N2CCN(S(=O)(=O)Cc3ccccc3)CC2)cnn1-c1ccccc1 ; endpoint: MIC ; strain: C693 ; method: broth dilution ; value: 100 µg/mL
CCCCCCCCON1CCN(c2ccc(-c3ccc(C(=O)N[C@H]4CCCNC(=O)C5C[C@H](N)CN5C(=O)C(C(C)O)NC(=O)C(CCc5ccc(O)cc5)NC(=O)C5C[C@@H](O)CN5C(=O)C(C(C)O)NC4=O)cc3)cc2)CC1 ; endpoint: MIC ; strain: ATCC 10231 ; value: 0.2 µg/mL
C[C@H]1[C@H](O)[C@@H](C)/C=C/C=C/C=C/C=C/C=C/C=C/C=C/[C@H](O[C@@H]2O[C@H](C)[C@@H](O)[C@H](N)[C@@H]2O)C[C@@H]2O[C@](O)(C[C@@H](O)C[C@@H](O)CC[C@H](O)[C@@H](O)C[C@@H](O)CC(=O)O[C@H]1C)C[C@H](O)[C@H]2C(=O)O ; endpoint: MIC90 ; strain: 25 isolates ; value: 0.25 µg/mL
Nn1c(SCC(O)(Cn2cncn2)c2ccc(F)cc2F)nnc1-c1ccc(O)cc1 ; endpoint: MIC ; strain: ATCC 18804 ; method: broth dilution ; value: >64 µg/mL
CCCCCCCCOc1ccc(N2CCN(c3ccc(C(=O)N[C@H]4CCCNC(=O)C5C[C@H](N)CN5C(=O)C(C(C)O)NC(=O)C(Cc5ccc(N)cc5)NC(=O)C5CCCN5C(=O)C(C(C)O)NC4=O)cc3)CC2)cc1 ; endpoint: MIC ; strain: ATCC CCH442 ; value: 0.39 µg/mL
C=C(CF)CN1C[C@H](OC[C@@]23C[C@@H]4[C@H](C)CC[C@H]4[C@@]4(C=O)C[C@@H]2CC(C(C)C)[C@@]34C(=O)O)O[C@H](C)C1 ; endpoint: MIC90 ; strain: 16 isolates/fluconazole resistant ; value: 0.015 µg/mL
CC1CCC(C(C)C)C(OC(=O)c2ccc([N+](=O)[O-])cc2[N+](=O)[O-])C1 ; endpoint: MIC ; value: 8.91 µM
Nn1c(SCC(O)(Cn2cncn2)c2ccc(F)cc2F)nnc1-c1ccc(Cl)cc1Cl ; endpoint: MIC ; strain: PTCC 6027 ; method: broth dilution ; value: 16 µg/mL
CC1CCC(C(C)C)C(OC(=O)c2ccc(Cl)cc2)C1 ; endpoint: MIC ; value: 21.38 µM
C[C@H]1[C@H](O)[C@@H](C)/C=C/C=C/C=C/C=C/C=C/C=C/C=C/[C@H](O[C@@H]2O[C@H](C)[C@@H](O)[C@H](N)[C@@H]2O)C[C@@H]2O[C@](O)(C[C@@H](O)C[C@@H](O)CC[C@H](O)[C@@H](O)C[C@@H](O)CC(=O)O[C@H]1C)C[C@H](O)[C@H]2C(=O)O ; endpoint: MIC ; strain: ATCC64547 ; value: 0.25 µg/mL
COc1ccccc1NC(=S)NNC(=O)c1cc2ccccc2cn1 ; endpoint: MIC ; strain: ATCC 90028 ; method: agar ; value: 25 µg/mL
CC1CCC(C(C)C)C(OC(=O)c2ccc([N+](=O)[O-])cc2)C1 ; endpoint: MIC ; value: 5.13 µM
CCCCCC12CCC(C(=O)N[C@H]3CCCNC(=O)C4C[C@H](N)CN4C(=O)C(C(C)O)NC(=O)C(CCc4ccc(O)cc4)NC(=O)C4C[C@@H](O)CN4C(=O)C(C(C)O)NC3=O)(CC1)CC2 ; endpoint: MIC ; strain: ATCC 62376 ; value: 3.12 µg/mL
C=C=CCN1C[C@H](OC[C@@]23C[C@@H]4[C@H](C)CC[C@H]4[C@@]4(C=O)C[C@@H]2CC(C(C)C)[C@@]34C(=O)O)O[C@H](C)C1 ; endpoint: MIC ; strain: CL-245 (fluconazole-resistant) ; value: ≤0.001 µg/mL